The assay concerns JEV strain AT31.
The mark [1] stands for this setting: Primary screening of 1034 compounds in the natural extracts library.
[2] abbreviates: primary screening of 1034 compounds in the natural extracts library, red numbers = obvious cytotoxicity, blue numbers = insoluble in DMSO (colours not visible).

Experimental findings from publication PMC7038234, “Screening of Natural Extracts for Inhibitors against Japanese Encephalitis Virus Infection” (Antimicrobial Agents and Chemotherapy, 2020) are described below.

Where “and” joins values, the source holds several entries; their conditions need not be identical. Equal values may be shown once. Read-outs that look alike come from different tables or passages of the source.

As for `C[C@H]1O[C@@H](O[C@H]2CC[C@@]3(C)[C@@H](CC[C@]4(C)[C@@H]3C=CC3=C5CC(C)(C)CC[C@]5(CO)[C@@H](O)C[C@]34C)[C@]2(C)CO)[C@H](O)[C@@H](O[C@@H]2O[C@H](CO)[C@@H](O)[C@H](O)[C@H]2O)[C@H]1O` [Saikosaponin B1], the “Inhibition (%)” value under setting [1] was -4.468%.

As for `Oc1cc(O)c2c(c1)O[C@H](c1cc(O)c(O)c(O)c1)[C@@H](O)C2` [(+)-Gallocatechin], the “Inhibition (%)” value under setting [1] is recorded as -5.153%.

As to ophiopogonin D', the “Inhibition (%)” value under setting [1] turned out to be 95.8658%.

With `C[C@@H]1CC[C@@]2(OC1)O[C@H]1C[C@H]3[C@@H]4CC=C5C[C@@H](O[C@@H]6O[C@H](CO)[C@@H](O)[C@H](O)[C@H]6O[C@@H]6O[C@@H](C)[C@H](O)[C@@H](O)[C@H]6O)CC[C@]5(C)[C@H]4CC[C@]3(C)[C@@]1(O)[C@@H]2C` [Polyphyllin VI], under setting [1], the “Inhibition (%)” value is 83.2782% and 63.6797%.

For `CCN1C[C@]2(OC(=O)c3ccccc3NC(C)=O)CC[C@H](OC)[C@@]34[C@@H]2C[C@@H]([C@@H]13)[C@@]1(O)C[C@H](OC)[C@H]2C[C@@H]4[C@]1(O)[C@H]2OC` [Lappaconitine], the “Inhibition (%)” value under setting [1] turned out to be 18.2978%.

In the case of `COc1c(/C=C/C(=O)c2ccc(O)cc2)ccc(O)c1O` [Licochalcone B], the “Inhibition (%)” value under setting [1] is -23.6842%.

On to `O=c1c(-c2ccc(O)cc2)coc2c([C@@H]3O[C@H](CO[C@@H]4OC[C@@H](O)[C@H](O)[C@H]4O)[C@@H](O)[C@H](O)[C@H]3O)c(O)ccc12` [Puerarin 6''-O-xyloside], for which, under setting [1], the “Inhibition (%)” value is -7.073%.

Regarding `O=C(CC(O)(CC(=O)OCc1ccc(O[C@@H]2O[C@H](CO)[C@@H](O)[C@H](O)[C@H]2O)cc1)C(=O)OCc1ccc(O[C@@H]2O[C@H](CO)[C@@H](O)[C@H](O)[C@H]2O)cc1)OCc1ccc(O[C@@H]2O[C@H](CO)[C@@H](O)[C@H](O)[C@H]2O)cc1` [Parishin A], under setting [1], the “Inhibition (%)” value came to 28.9901%.

`CC1(C)CC[C@]2(C(=O)O)CC[C@]3(C)C(=CC[C@@H]4[C@@]5(C)CC[C@H](O)C(C)(C)[C@@H]5CC[C@]43C)[C@@H]2C1` [Oleanic acid]: the “Inhibition (%)” value under setting [1] worked out at 68.7465%.

In the case of `CC1(C)[C@@H](O[C@H]2O[C@H](C(=O)O)[C@@H](O)[C@H](O)[C@H]2O[C@@H]2O[C@H](C(=O)O)[C@@H](O)[C@H](O)[C@H]2O)CC[C@]2(C)[C@H]3C(=O)C=C4[C@@H]5C[C@@](C)(C(=O)O)CC[C@]5(C)CC[C@@]4(C)[C@]3(C)CC[C@@H]12.N` [Glycyrrhizic acid ammonium salt], the “Inhibition (%)” value under setting [1] is listed as -4.747%.

With `C[C@@H]1O[C@@H](O[C@@H]2[C@@H](O)[C@H](O)[C@@H](CO)O[C@H]2c2c(O)cc(O)c3c(=O)cc(-c4ccc(O)cc4)oc23)[C@H](O)[C@H](O)[C@H]1O`, the “Inhibition (%)” value under setting [1] is on record as 8.442%.

As for `[Cl-].c1c2c(cc3c1OCO3)-c1cc3ccc4c(c3c[n+]1CC2)OCO4` [Coptisine hydrochloride], the “Inhibition (%)” value under setting [1] is given as -12.6803%.

As for `CCN1C[C@]2(COC)[C@H](O)C[C@H](OC)[C@@]34[C@@H]5C[C@@]6(O)[C@H](OC(=O)c7ccccc7)[C@@H]5[C@@](O)([C@@H]([C@H](OC)[C@H]23)[C@@H]14)[C@@H](O)[C@@H]6OC` [Benzoylaconine], the “Inhibition (%)” value under setting [1] came to 19.17%.

Regarding `COc1cc(CCc2cc(OC)c(O)c(OC)c2)ccc1O` [Dendrophenol], the “Inhibition (%)” value under setting [1] was determined as 22.5499%.

Turning to `CCN1C[C@]2(COC)[C@H](O)C[C@H](OC)[C@]34C1[C@H]([C@H](OC)[C@H]23)[C@@]1(OC(C)=O)C[C@H](OC)[C@@]2(O)C[C@@H]4[C@@H]1[C@H]2OC(=O)c1ccc(OC)cc1` [Yunaconitine;Guayewuanine B], under setting [1], the “Inhibition (%)” value was -5.863%.

On to `O=C(/C=C/c1ccc(O)c(O)c1)O[C@@H]1[C@H](O)C[C@@](O)(C(=O)O)C[C@H]1OC(=O)/C=C/c1ccc(O)c(O)c1` [Isochlorogenic acid B], for which, under setting [1], the “Inhibition (%)” value is 62.7768%.

As to `COC(=O)C1=CO[C@@H](O[C@@H]2O[C@H](CO[C@@H]3O[C@H](CO)[C@@H](O)[C@H](O)[C@H]3O)[C@@H](O)[C@H](O)[C@H]2O)[C@@H]2C(CO)=CC[C@H]12` [genipin-1-b-D-gentiobioside], the “Inhibition (%)” value under setting [1] is 15.496%.

Regarding `Cc1cc(O)cc(O[C@@H]2O[C@H](CO[C@@H]3O[C@H](CO)[C@@H](O)[C@H](O)[C@H]3O)[C@@H](O)[C@H](O)[C@H]2O)c1` [Orcinol Gentiobioside], under setting [1], the “Inhibition (%)” value is given as -9.451%.

For Glucosyl-vitexin, under setting [1], the “Inhibition (%)” value was determined as 4.202%.

`COc1c(O[C@@H]2O[C@H](C(=O)O)[C@@H](O)[C@H](O)[C@H]2O)cc2oc(-c3ccccc3)cc(=O)c2c1O` [Oroxylin A 7-O-glucuronide]: the “Inhibition (%)” value under setting [1] is 5.69%.

For `CN1C[C@@H]2C[C@H](C1)c1cccc(=O)n1C2` [N-Methylcytisine], under setting [1], the “Inhibition (%)” value amounted to 5.573%.

On to `CC/C=C\C/C=C\C/C=C\CCCCCCCC(=O)O` [α-Linolenic acid], for which, under setting [1], the “Inhibition (%)” value is given as 13.9313%.

In the case of Pseudoginsenoside F11, the “Inhibition (%)” value under setting [1] worked out at 9.2512%.

`C=C(C)[C@@H]1CC=C(/C=N/O)CC1` [Perillartine]: the “Inhibition (%)” value under setting [1] is given as -1.21%.

As for `CC(C)=CC1CC(O)(C2CCC3(C)C2CCC2C4(C=O)CCC(OC5OCC(O)C(OC6OCC(O)C(O)C6O)C5OC5OC(C)C(O)C(O)C5O)C(C)(C)C4CCC23C)C(O)O1` (stereo not shown) [gypenoside A], the “Inhibition (%)” value under setting [1] is 12.9654%.

Regarding Methyl hesperidin, the “Inhibition (%)” value under setting [1] was -8.5605%.

For the compound `C=C1C[C@@]23CC[C@H]4[C@@](C)(CCC[C@@]4(C)C(=O)O)[C@@H]2CC[C@]1(O[C@@H]1O[C@H](CO)[C@@H](O)[C@H](O)[C@H]1O[C@@H]1O[C@H](CO)[C@@H](O)[C@H](O)[C@H]1O)C3` [Steviolbioside], the “Inhibition (%)” value under setting [1] was -6.88%.

On to `COc1cc(C2Oc3ccc([C@H]4Oc5cc(O)cc(O)c5C(=O)[C@@H]4O)cc3OC2CO)ccc1O` (stereo partly shown) [Isosilybin], for which the “Inhibition (%)” value under setting [1] is on record as -13.837%.

Turning to `COC[C@]12CN(C)C3[C@@H]4[C@H](OC)[C@H]1[C@@]3([C@@H](OC)C[C@H]2O)[C@@H]1C[C@@]2(O)[C@H](OC(=O)c3ccccc3)[C@@H]1[C@]4(O)[C@@H](O)[C@@H]2OC` [Benzoylmesaconine], under setting [1], the “Inhibition (%)” value is listed as -3.649%.

For `COc1ccc(CCO[C@@H]2O[C@H](CO[C@@H]3OC[C@H](O)[C@H](O)[C@H]3O)[C@@H](OC(=O)/C=C/c3ccc(O)c(OC)c3)[C@H](O[C@@H]3O[C@@H](C)[C@H](O)[C@@H](O)[C@H]3O)[C@H]2O)cc1O` [Angoroside C], under setting [1], the “Inhibition (%)” value was found to be 6.999%.

As for `CC(C)=CCCC(C)(O)C1CCC2(C)C1C(O)CC1C3(C)CCC(O)C(C)(C)C3CCC12C` (stereo not shown) [Protopanaxdiol], the “Inhibition (%)” value under setting [1] is given as 77.4457%.

Turning to `O=C(OC[C@H]1OC(OC(=O)c2cc(O)c(O)c(O)c2)[C@H](OC(=O)c2cc(O)c(O)c(O)c2)[C@@H](OC(=O)c2cc(O)c(O)c(O)c2)[C@@H]1OC(=O)c1cc(O)c(O)c(O)c1)c1cc(O)c(O)c(O)c1` (stereo partly shown) [1,2,3,4,6-O-pentagalloylglucose], the “Inhibition (%)” value under setting [1] is listed as 43.1151%.

`O[C@H]1[C@H]2c3cc4c(cc3CN3CC[C@H](C[C@@H]1O)[C@H]23)OCO4` [Dihydrolycorine]: under setting [1], the “Inhibition (%)” value worked out at 25.2068%.

With `COc1ccc(C[C@@H]2COc3c(C)c(O)c(C)c(O)c3C2=O)cc1` [Methylophiopogonanone B], under setting [1], the “Inhibition (%)” value is listed as 15.1162%.

As for Ginkgolide B, the “Inhibition (%)” value is recorded as -14.6694%.

As to Harpagide, the “Inhibition (%)” value is recorded as -1.46%.

As to `COc1cc(-c2oc3cc(O)cc(O)c3c(=O)c2O[C@@H]2O[C@H](CO)[C@@H](O)[C@H](O)[C@H]2O[C@@H]2O[C@@H](C)[C@H](O)[C@@H](O)[C@H]2O)ccc1O` [Isorhamnetin-3-O-neohespeidoside], the “Inhibition (%)” value under setting [1] came to 1.429%.

For `C[C@H]1[C@@H](O)CC[C@@H]2[C@]1(C)CC[C@H]1[C@@]2(C)CC[C@@]2(C)[C@@H]3CC(C)(C)CC[C@]3(C)CC[C@]12C` [Friedelan-3beta-ol], the “Inhibition (%)” value under setting [1] was found to be 26.256%.

For the compound Triolein, the “Inhibition (%)” value stood at 3.456%.

For the compound `COc1ccc(-c2oc3c(CC=C(C)C)c(O)cc(O)c3c(=O)c2O[C@@H]2O[C@@H](C)[C@H](O)[C@@H](O)[C@H]2O[C@@H]2O[C@@H](C)[C@H](O)[C@@H](O)[C@H]2O)cc1` [2"-O-rhamnosyl icariside II], the “Inhibition (%)” value under setting [1] is -28.5906%.

As for `CCOC(=O)c1ccc(O)c(O)c1` [Ethyl 3,4-dihydroxybenzoate], the “Inhibition (%)” value under setting [1] is -6.413%.

As for `C=C1CC[C@@H]2[C@](C)(CO)[C@H](O)CC[C@@]2(C)[C@@H]1/C=C/C1=CCOC1=O` [Dehydrographkide], the “Inhibition (%)” value under setting [1] was found to be 79.3338%.

On to `CC(C)=CCc1cc2c(cc1O)oc(=O)c1c3ccc(O)cc3oc21` [psoralidin], for which, under setting [2], the “Inhibition (%)” value was 55.5877%.

As to `CCCCCCCCC[C@H](O)CC(=O)CCc1ccc(O)c(OC)c1` [10-Gingerol], the “Inhibition (%)” value under setting [1] is -112.021%.

As to `CCC(=O)c1cc2c(cc1O)OCO2` [Kakuol], the “Inhibition (%)” value under setting [1] is 11.2846%.

In the case of `COc1cc(/C=C/C(=O)OC[C@H]2O[C@@H](O[C@@H]3[C@@H](O)[C@H](O)[C@@H](CO)O[C@H]3c3c(OC)cc4oc(-c5ccc(O)cc5)cc(=O)c4c3O)[C@H](O)[C@@H](O)[C@@H]2O)ccc1O` [6ˊ〞-Feruloylspinosin], the “Inhibition (%)” value under setting [1] stood at 9.26%.

Take `COc1ccc2ccc(=O)oc2c1` [7-Methoxycoumarin]: under setting [1], the “Inhibition (%)” value is -3.6673%.

For Hecogenin, the “Inhibition (%)” value under setting [1] is on record as 0.5384%.

`CCC(=O)C1=C(O)C(C)(C)C(O)=C(CC2=C(O)C(C)(C)C(O)=C(C(C)=O)C2=O)C1=O` [Albaspidin AP]: the “Inhibition (%)” value under setting [1] is recorded as 7.6572%.

In the case of `C[C@@H]1O[C@@H](OC[C@H]2O[C@@H](Oc3cc(O)c4c(=O)cc(-c5ccc(O)cc5)oc4c3)[C@H](O[C@@H]3O[C@@H](C)[C@H](O)[C@@H](O)[C@H]3O)[C@@H](O)[C@@H]2O)[C@H](O)[C@H](O)[C@H]1O` [ligustroflavone], the “Inhibition (%)” value under setting [2] was 16.4909%.

As for `CCCCC/C=C\C/C=C\CCCCCCCC(=O)NCc1ccccc1` [Linoleamide, N-benzyl-], the “Inhibition (%)” value under setting [1] turned out to be 34.8673%.

In the case of `COC(=O)C1=CO[C@@H](O[C@@H]2O[C@H](CO)[C@@H](O)[C@H](O)[C@H]2O)[C@@H]2[C@@]3(C)O[C@H]3[C@@H](O)[C@]12O` [Sesamoside], the “Inhibition (%)” value under setting [1] is given as 35.8327%.
